# Test results taken from publication PMC8324912.
# The exact form of at least one protein or probe is not confirmed.
# Assays:
# [1] = test system: ArcA (Vibrio cholerae E12382); assay: EMSA; settings: 30 mM acetyl phosphate when necessary; recombinant protein; residues 1-239; protein details: 6xHis (pET28a); probe letters rebuilt from the primers and the genome
# [2] = test system: FruI (LacI-type regulator) (Vibrio cholerae E12382); assay: EMSA; settings: recombinant protein, residues 1-343, protein details: 6xHis (pET28a), probe letters rebuilt from the primers and the genome
Sequence,binding result [1],"binding result ([2]; 0-10 mM fructose, binding not inhibited)","binding result ([2]; 0-10 mM fructose-1-phosphate, binding not inhibited)","binding result ([2]; 0-10 mM fructose-6-phosphate, binding not inhibited)",binding result ([2]; no effector)
GAGCTGTTTATTTTGGGTATAACCCAAAATAATAAGCGAATAACCGTTTACCGCTCTAAATTATGTGACGTTGTGTTAATTGAATTGATGACTACGTAACTATTTATGCTAGGCTGTAGTCGGTTCTAATGACTGATAAATCACGAGTTATGCATTCTGAAAAAGCCACCGTCACCTCCAAAGATGTTGCCAAGTTAGCTGGGGTTTCTCAATCTACCGTATCACGCGTTTTTGTACCGGGTAGCTCGGTATCTG (double strand) [fruI promoter (EMSA fragment)],binds,–,–,–,–
GTAACCAACCAAGATCGCCAGATAGGCGGCTACTCTTTGAATCATAGGAACTTCGCTCATGTGTTTTTTGGTGGTCATGACCGATAAACCTCTGTTTTAAATTGATTTAAATATAATTCAACAGTGTGATTGAGACAGTTTCTCCATCTTTTTCAACCTTTACTTCGCGAAGAAGAATAGATTTATTTCGCGATAATGATCCGTGATCA (double strand) [fruT promoter (EMSA fragment)],–,binds,binds,binds,binds
